Test results from PMC3411833, “The Two PPX-GppA Homologues from Mycobacterium tuberculosis Have Distinct Biochemical Activities” (PLoS ONE, 2012).

Tested on: Nc1ncnc2c1ncn2[C@@H]1O[C@H](COP(=O)(O)OP(=O)(O)OP(=O)(O)O)[C@@H](O)[C@H]1O
Experiment: purified protein
Settings: pH 7.4; 37.0 °C

| Substance | Km [mM] |
| --- | --- |
| MTB-PPX1 (Rv0496) (Mycobacterium tuberculosis H37Rv) | 6.1 ± 0.8 |
| Rv1026 (Mycobacterium tuberculosis H37Rv) | 2.6 ± 1.0 |
